# According to patent US20100034839A1 (priority 2008, published 2010):
# Assay: peptide made by a vendor
# Details: whole synthesis
row,Sequence,final HPLC purity
1,ANSGFRIMAVLASGGQY,>95%
2,KALVQNDTLLQVKG,>95%
3,SGGGANSGFRIMAVLASGGQY,>95%
4,SGGGKALVQNDTLLQVKG,>95%
5,SKMRMATPLLMQALY,>95%

# End groups of sequences in plain letters are not given here. The same purity stands for every peptide and may come from a single statement.
